Target: MN-P envelope glycoprotein (neutralization resistant primary clone of the HIV-1 MN strain) (HIV-1 MN strain) (UniProt P05877)
Test: cell-based or functional assay

soluble CD4 (from UniProt P01730 26-396) (receptor)
neutralization by sCD4: > 1 µg/mL | resistance to sCD4 neutralization relative to MN-TCLA: > 50 fold | sCD4-induced release of gp120 from virions: > 3 fold

Reference: US20080057492A1, “Interacting site for gp41 on gp120 of hiv-1” (priority 2002, published 2008)
